Measured values from several laboratories, pooled; numbers as filed in NIAID ChemDB.

Shared fields: whole-cell or culture tests; species: Candida albicans; read-out: zone

Zones are inhibition diameters on agar. An empty or dashed field is not shown. Rows are shuffled and stem from different studies.

smiles,method,tested at,strain,value
O=[N+]([O-])c1ccc(-c2cn3nc([N+](=O)[O-])sc3n2)cc1,agar diffusion,75 µg/mL,,0 mm
O=C1NC(=O)/C(=C/c2coc3ccccc3c2=O)S1,agar diffusion / agar,100 µg/mL,fungal strain,3 mm
O=C1CSC(c2ccccc2[N+](=O)[O-])N1Nc1nc2ccccc2n2nnnc12,agar diffusion,50 µg/mL,ATCC 2091,7 mm
CCc1c(Cc2ccc(OC)c(OC)c2)nc(SCCN2CCCCC2)[nH]c1=O,agar diffusion / agar,200 µg/disc,ATCC 10231,20 mm
NC1N=C/C(=C\c2sc(=O)[nH]c2O)C(c2ccccc2O)=N1,agar diffusion / agar,100 µg/mL,fungal strain,9 mm
C/C=C/C1=CC2=CC(=O)[C@](C)(OC(=O)c3c(C)cc(O)cc3OC)C(=O)C2=CO1,agar diffusion,1 µg/disc,ATCC 64548,0 mm
Cc1ccc(-c2c(NCS(=O)(=O)c3ccc(C)cc3)oc3[nH]c(=O)[nH]c(=O)c23)cc1,agar diffusion / agar,50 µg/mL,,0 mm
CCc1c(Cc2ccc(OC)c(OC)c2)[nH]c(=S)[nH]c1=O,agar diffusion / agar,200 µg/disc,ATCC 10231,<10 mm
COc1ccc(-c2nc(S(C)(=O)=O)nc(N)c2C#N)cc1,agar diffusion,25 µg/mL,MTCC 227,17 mm
O=C1NC(=O)/C(=C/c2cc3c(=O)n(-c4ccccc4)nc-3oc2-c2ccccc2O)S1,agar diffusion / agar,100 µg/mL,fungal strain,8 mm
CC(C)=CCCC(C)CCO,agar diffusion,1706 µg/disc,Clinical isolates,<14 mm
COc1ccc(C(=O)/C=C/c2cc(OC)c(OC)c(OC)c2)cc1OC,agar diffusion / agar,1 mg/mL,DSM 70014,14 mm
O=C1C(Cl)C(c2ccc([N+](=O)[O-])cc2)N1Nc1nc2ccccc2n2nnnc12,agar diffusion,50 µg/mL,ATCC 2091,10 mm
CC1=C(Cl)C(O)=CC(=O)C12Oc1cc(O)c(Cl)c(C)c1C2=O,agar diffusion,100 µg/mL,MTCC 227,25 mm
CCc1c(Cc2ccc(OC)c(OC)c2)nc(SCCN2CCCC2)[nH]c1=O,agar diffusion / agar,200 µg/disc,ATCC 10231,35 mm
CSC1=NC(c2cccc([N+](=O)[O-])c2)C(C#N)=C(N)N1,agar diffusion,25 µg/mL,MTCC 227,17 mm
CCOc1ccc(S(=O)(=O)N2CCOCC2)cc1-c1nc2ncccc2c(=O)[nH]1,agar diffusion / agar,0.002 µg/mL,ATCC 10231,17 mm
O=C1CSC(c2ccccc2Cl)N1Nc1nc2ccccc2n2nnnc12,agar diffusion,100 µg/mL,ATCC 2091,13 mm
COc1ccc(-c2cn3nc(Cl)sc3n2)cc1,agar diffusion,75 µg/mL,,12 mm
COc1ccc(C2=CC(c3cc(OC)c(OC)c(OC)c3)NC(SCC(=O)Nc3ccc(Cl)cc3)N2)cc1OC,agar diffusion / agar,1 mg/mL,DSM 70014,15 mm
CCc1c(Cc2ccc(Cl)cc2)nc(SCCN2CCCCC2)[nH]c1=O,agar diffusion / agar,200 µg/disc,ATCC 10231,30 mm
COc1ccc(C2=CC(c3cc(OC)c(OC)c(OC)c3)NC(=S)N2c2ccccc2)cc1OC,agar diffusion / agar,1 mg/mL,DSM 70014,16 mm
CCOC(=O)c1[nH]nc(-c2ccc(Cl)cc2)c1N=Nc1ccccc1,agar diffusion / agar,0.002 µg/mL,ATCC 10231,16 mm
CCc1c(Cc2ccc(Cl)cc2)nc(SCCN2CCCC2)[nH]c1=O,agar diffusion / agar,200 µg/disc,ATCC 10231,32 mm
CCOC(=O)c1[nH]nc(-c2ccc(Cl)cc2)c1N,agar diffusion / agar,0.002 µg/mL,ATCC 10231,17 mm
O=C1C(Cl)C(c2ccccc2[N+](=O)[O-])N1Nc1nc2ccccc2n2nnnc12,agar diffusion,100 µg/mL,ATCC 2091,11 mm
O=[N+]([O-])c1ccc(-c2cn3nc(Cl)sc3n2)cc1,agar diffusion,75 µg/mL,,0 mm
Cc1ccc(S(=O)(=O)CNc2oc3[nH]c(=O)[nH]c(=O)c3c2-c2ccc([N+](=O)[O-])cc2)cc1,agar diffusion / agar,50 µg/mL,,0 mm
CCOC(=O)c1[nH]nc(-c2ccc(Br)cc2)c1N,agar diffusion / agar,0.002 µg/mL,ATCC 10231,16 mm
O=C1CSC(c2ccccc2)N1Nc1nc2ccccc2n2nnnc12,agar diffusion,50 µg/mL,ATCC 2091,7 mm
COc1ccc(/C=N/c2nnc(-c3cc4ccccc4oc3=O)o2)cc1,agar diffusion,100 µg/mL,ATCC 10231,12 mm
CSC1=NC(c2ccccc2[N+](=O)[O-])C(C#N)=C(N)N1,agar diffusion,25 µg/mL,MTCC 227,17 mm
O=c1[nH]cnc2c(-c3ccccc3)n[nH]c12,agar diffusion / agar,0.002 µg/mL,ATCC 10231,17 mm
Cc1nn2c(nc1=O)SC(c1ccccc1O)=C(/C=C1\SC(=O)NC1=O)C=N2,agar diffusion / agar,100 µg/mL,fungal strain,10 mm
CS(=O)(=O)c1nc(N)c(C#N)c(-c2ccc(Cl)cc2)n1,agar diffusion,25 µg/mL,MTCC 227,17 mm
Cc1ccc(S(=O)(=O)CNc2oc3[nH]c(=O)[nH]c(=O)c3c2-c2ccsc2C=O)cc1,agar diffusion / agar,50 µg/mL,,0 mm
O=C1C(Cl)C(c2ccc(F)cc2)N1Nc1nc2ccccc2n2nnnc12,agar diffusion,100 µg/mL,ATCC 2091,10 mm
CCc1c(Cc2ccc(Cl)cc2)[nH]c(=S)[nH]c1=O,agar diffusion / agar,200 µg/disc,ATCC 10231,22 mm
O=c1oc2ccccc2cc1-c1nnc(/N=C/c2cccc(O)c2)o1,agar diffusion,100 µg/mL,ATCC 10231,11 mm
O=C1NC(=O)/C(=C/c2cnn(-c3ccccc3)c2-c2ccccc2O)S1,agar diffusion / agar,100 µg/mL,fungal strain,10 mm
O=C1C(Cl)C(c2ccccc2)N1Nc1nc2ccccc2n2nnnc12,agar diffusion,100 µg/mL,ATCC 2091,9 mm
O=C1NC(=O)/C(=C/c2cnoc2-c2ccccc2O)S1,agar diffusion / agar,100 µg/mL,fungal strain,8 mm
O=C1CSC(c2ccc(O)cc2)N1Nc1nc2ccccc2n2nnnc12,agar diffusion,50 µg/mL,ATCC 2091,11 mm
C[C@H]1[C@H](O)[C@@H](C)/C=C/C=C/C=C/C=C/C=C/C=C/C=C/[C@H](O[C@@H]2O[C@H](C)[C@@H](O)[C@H](N)[C@@H]2O)C[C@@H]2O[C@](O)(C[C@@H](O)C[C@@H](O)CC[C@H](O)[C@@H](O)C[C@@H](O)CC(=O)O[C@H]1C)C[C@H](O)[C@H]2C(=O)O,agar diffusion,100 µg/disc,Ca4,21 mm
CCc1c(Cc2ccc(C)cc2)[nH]c(=S)[nH]c1=O,agar diffusion / agar,200 µg/disc,ATCC 10231,<10 mm
COc1ccc(C2=NN(c3ccc([N+](=O)[O-])cc3)C(c3cc(OC)c(OC)c(OC)c3)C2)cc1OC,agar diffusion / agar,1 mg/mL,DSM 70014,14 mm
O=c1oc2ccccc2cc1-c1nnc(/N=C/c2ccccc2F)o1,agar diffusion,100 µg/mL,ATCC 10231,13 mm

Repeating the first 5 entries:

{"smiles": "O=[N+]([O-])c1ccc(-c2cn3nc([N+](=O)[O-])sc3n2)cc1", "method": "agar diffusion", "tested at": "75 µg/mL", "value": "0 mm"}
{"smiles": "O=C1NC(=O)/C(=C/c2coc3ccccc3c2=O)S1", "method": "agar diffusion / agar", "tested at": "100 µg/mL", "strain": "fungal strain", "value": "3 mm"}
{"smiles": "O=C1CSC(c2ccccc2[N+](=O)[O-])N1Nc1nc2ccccc2n2nnnc12", "method": "agar diffusion", "tested at": "50 µg/mL", "strain": "ATCC 2091", "value": "7 mm"}
{"smiles": "CCc1c(Cc2ccc(OC)c(OC)c2)nc(SCCN2CCCCC2)[nH]c1=O", "method": "agar diffusion / agar", "tested at": "200 µg/disc", "strain": "ATCC 10231", "value": "20 mm"}
{"smiles": "NC1N=C/C(=C\\c2sc(=O)[nH]c2O)C(c2ccccc2O)=N1", "method": "agar diffusion / agar", "tested at": "100 µg/mL", "strain": "fungal strain", "value": "9 mm"}